PubChem BioAssay AID1259414 – Drosophila RNAi Screening Center, 2018
In all, the deposit lists about 24,000 reagents; below is an unselected part of those with a known target gene and a result. In the full data, about 1,210 (5%) are marked active. 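Inactive calls also include excluded dsRNAs with several or no targets, genes unexpressed in JW18, and well A1, regardless of score.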 The numbers tell different reagents against one gene apart.

Aim: 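Fly genes that alter Wolbachia amount inside host cells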 (primary screen)
System: Drosophila JW18 cells infected with Wolbachia
Reagents: long dsRNA against Drosophila genes, 0.25 µg dsRNA per well of a 384-well plate
Duration: 5 days
Challenge: cells persistently infected with Wolbachia before knock-down; no added drug
Detection: 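Automated imaging of bacterial rRNA staining divided by host cell count, reported as plate-normalised robust z-score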
Scale: Wolbachia per cell robust z: higher = more Wolbachia per host cell than the plate typical
Rule for the call: 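Active if absolute robust z reaches 1.5 in two or more of three replicates, leaving out multi- or no-target dsRNAs, genes unexpressed in JW18 and A1 wells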

| Target gene | reagent | Wolbachia per cell robust z, rep 1 | Wolbachia per cell robust z, rep 2 | Wolbachia per cell robust z, rep 3 | outcome |
| --- | --- | --- | --- | --- | --- |
| Ir64a | 1 | 0.214 | -0.642 | -0.613 | inactive |
| Ir64a | 2 | -0.723 | -0.0237 | -4.8 | inactive |
| Jon65Aiii | 1 | -0.358 | 1.29 | 0.274 | inactive |
| Jon65Aiii | 2 | -0.249 | 0.182 | 0.875 | inactive |
| lncRNA:CR40629 | 1 | 0.156 | 0.223 | 1.98 | inactive |
| step | 1 | 0.108 | -0.426 | -0.372 | inactive |
| step | 2 | 0.534 | 0.174 | -0.137 | inactive |
| obst-F | 1 | 0.437 | -0.675 | 0.874 | inactive |
| obst-F | 2 | -1.5 | -0.631 | -0.705 | inactive |
| Tti1 | 1 | -2.7 | -0.97 | -0.616 | inactive |
| Tti1 | 2 | -0.673 | -0.358 | -11.1 | inactive |
| CR7448 | 1 | -2.11 | -6.3 | 0.759 | inactive |
| CR7448 | 2 | -1.98 | -2.47 | -2.03 | inactive |
| PolA2 | 1 | 0.149 | -0.465 | -0.455 | inactive |
| CG11334 | 1 | 0.0999 | -6.49 | 1.35 | inactive |
| CG11334 | 2 | -3.95 | -1 | -1.25 | inactive |
| fzr2 | 1 | -0.403 | -0.222 | -1.11 | inactive |
| spz | 1 | 0.775 | 0.535 | -0.619 | inactive |
| spz | 2 | -1.13 | -0.0313 | -0.413 | inactive |
| spz | 3 | -0.138 | 1.1 | -0.247 | inactive |
| CG7650 | 1 | 1.34 | 0.699 | 0.705 | inactive |
| CG7650 | 2 | -3.46 | 0.657 | 0.0833 | inactive |
| CG2608 | 1 | 0.735 | -6.04 | -0.0852 | inactive |
| ena | 1 | 0.952 | 1.03 | 1.52 | inactive |
| ena | 2 | 0.389 | 0.96 | 0.355 | inactive |
| ena | 3 | -1.61 | 2.05 | 0.639 | inactive |
| E(var)3-9 | 1 | -2.99 | 0.232 | 0.513 | inactive |
| E(var)3-9 | 2 | -0.999 | -0.345 | -0.31 | inactive |
| Eig71Eh | 1 | 0.698 | 0.559 | 0.459 | inactive |
| RpL37A | 1 | 1.96 | 3.23 | 1.66 | active |
| RpL37A | 2 | 1.71 | 4.44 | 3.7 | active |
| CG33120 | 1 | -0.0173 | -0.534 | -3.9 | inactive |
| CG2519 | 1 | -1.86 | 0.388 | 0.473 | inactive |
| Hml | 1 | -0.692 | -0.651 | 0.417 | inactive |
| Ndae1 | 1 | 1.33 | 0.367 | 0.376 | inactive |
| Ndae1 | 2 | 0.185 | 0.22 | -0.013 | inactive |
| CG14244 | 1 | -4.62 | 1.06 | 0.949 | inactive |
| obst-H | 1 | -0.789 | 2.07 | -1.41 | inactive |
| obst-H | 2 | 0.0669 | -0.468 | 0.398 | inactive |
| obst-E | 1 | -0.704 | 0.551 | -0.487 | inactive |
| obst-E | 2 | 0.238 | -1.91 | -0.943 | inactive |
| Idi | 1 | -0.651 | -8.71 | 0.376 | inactive |
| Obp99b | 1 | 0.427 | 0.273 | 0.333 | inactive |
| Obp99b | 2 | 0.217 | 0.197 | 0.944 | inactive |
| Kap-alpha3 | 1 | -0.94 | -1.51 | -1.01 | inactive |
| Kap-alpha3 | 2 | -0.0467 | 0.619 | 0.951 | inactive |

Sorted by “Wolbachia per cell robust z, rep 1” (high to low): some entries from above.
| Target gene | reagent | Wolbachia per cell robust z, rep 1 | Wolbachia per cell robust z, rep 2 | Wolbachia per cell robust z, rep 3 | outcome |
| --- | --- | --- | --- | --- | --- |
| PolA2 | 1 | 0.149 | -0.465 | -0.455 | inactive |
| CG11334 | 1 | 0.0999 | -6.49 | 1.35 | inactive |
| Tti1 | 2 | -0.673 | -0.358 | -11.1 | inactive |
| obst-F | 2 | -1.5 | -0.631 | -0.705 | inactive |
| CR7448 | 2 | -1.98 | -2.47 | -2.03 | inactive |
| CR7448 | 1 | -2.11 | -6.3 | 0.759 | inactive |
| Tti1 | 1 | -2.7 | -0.97 | -0.616 | inactive |
